Measured values from several laboratories, pooled; numbers as filed in NIAID ChemDB.

Common to all: whole-cell or culture tests; agent: HIV-1; read by: cytopathic effect / MTT; read-out: fold resistance

Conditions beyond the fields shown may differ between rows.

SMILES	mutations	cells	strain	value
Cc1cccc(S(=O)(=O)c2c(C(=O)NCCO)[nH]c3ccc(Cl)cc23)c1	RT-Y181C	MT-4	-	26
CC(C)CN(C[C@@H](O)[C@H](Cc1ccccc1)NC(=O)[C@@H](N1CCN(Cc2cccnc2)C1=O)C(C)(C)C)S(=O)(=O)c1ccc(/C=N/O)cc1	PR-L10F V32I M46I I47V Q68E I84V	MT-4	A17 (LPV-resistant)	1
Cc1cc(C)cc(S(=O)(=O)c2c(C(=O)/C=C/C(N)=O)[nH]c3ccc(Cl)cc23)c1	RT-K103N Y181C	MT-4	-	>1666
O=C(NCCO)c1[nH]c2ccc(Cl)cc2c1S(=O)(=O)c1ccccc1	RT-Y181C	MT-4	-	70
C=C(c1cc(C)cc(C)c1)c1c(CC)c(=O)[nH]c(=O)n1COC/C=C/c1ccccc1	RT-K103N Y181C	MT-4	IIIB	3330
Cc1cc(C)cc(Sc2c(C(=O)NNCCO)[nH]c3ccc(Cl)cc23)c1	RT-Y181C	MT-4	-	33.3
CCC(C)[C@@H](C(=O)N[C@@H](Cc1ccccc1)[C@H](O)CN(CC(C)C)S(=O)(=O)c1ccc(/C=N/O)cc1)N1CCN(Cc2ccccn2)C1=O	PR-L10F V32I M46I I47V Q68E I84V	MT-4	A17 (LPV-resistant)	2.4
O=C(NNCCO)c1[nH]c2ccc(Cl)cc2c1S(=O)(=O)c1ccccc1	RT-K103N Y181C	MT-4	-	>2000
CCC(C)[C@@H](C(=O)N[C@@H](Cc1ccccc1)[C@H](O)CN(CC1CCCC1)S(=O)(=O)c1ccc(/C=N/O)cc1)N1CCN(Cc2cccnc2)C1=O	PR-L10F V32I M46I I47V Q68E I84V	MT-4	A17 (LPV-resistant)	0.5
Cc1ccc(S(=O)(=O)c2c(C(N)=O)[nH]c3ccc(Cl)cc23)c(C)c1	RT-K103N Y181C	MT-4	A17	2500
CCc1c(C)[nH]c(=O)c(CC)c1Oc1cc(C)cc(C)c1	RT-L100I	MT-4	-	4
Cc1cccc(S(=O)(=O)c2c(C(N)=O)[nH]c3ccc(Cl)cc23)c1	RT-K103R V179D P225H	C8166	Efavirenz-resistant (RT K103R V179D P225H)	52
C#CCOCn1c(C(=C)c2cc(C)cc(C)c2)c(CC)c(=O)[nH]c1=O	RT-Y181C	MT-4	IIIB	567
Cc1ccc(S(=O)(=O)c2c(C(N)=O)[nH]c3ccc(Cl)cc23)cc1	RT-K103R V179D P225H	C8166	Efavirenz-resistant (RT K103R V179D P225H)	9300
CC(C)CN(C[C@@H](O)[C@H](Cc1ccccc1)NC(=O)[C@H](C(C)C)N1CC(=O)N(Cc2ccccn2)C1=O)S(=O)(=O)c1ccc(/C=N/O)cc1	PR-L10F V32I M46I I47V Q68E I84V	MT-4	A17 (LPV-resistant)	5
CCc1c(C)[nH]c(=O)c(Sc2ccccc2)c1Oc1cc(C)cc(C)c1	RT-K103N	MT-4	-	79
Cc1cc(C)cc(S(=O)(=O)c2c(C(=O)NCCO)[nH]c3ccc(Cl)cc23)c1	RT-K103N Y181C	MT-4	-	375
CCC(C)[C@@H](C(=O)N[C@@H](Cc1ccccc1)[C@H](O)CN(CC(C)C)S(=O)(=O)c1ccc(/C=N/O)cc1)N1CCN(Cc2cccnc2C)C1=O	PR-L10F V32I M46I I47V Q68E I84V	MT-4	A17 (LPV-resistant)	9.5
C=C(c1cc(C)cc(C)c1)c1c(CC)c(=O)[nH]c(=O)n1COC/C(C)=C/c1ccccc1	RT-Y181C	MT-4	IIIB	233.3
Cc1ccc(S(=O)(=O)c2c(C(=O)NNCCO)[nH]c3ccc(Cl)cc23)cc1	RT-K103N Y181C	MT-4	-	500
CCc1c[nH]c(=O)c(N)c1Sc1cc(C)cc(C)c1	RT-Y181C	CEM + CEM-SS	N119(RT-Y181C)	29.6
CCc1c(C)[nH]c(=O)c(Br)c1Oc1cc(C)cc(C)c1	RT-Y181C	MT-4	-	32
Cc1cccc(Sc2c(C)c[nH]c(=O)c2N)c1	RT-Y181C	CEM + CEM-SS	N119(RT-Y181C)	>1490
CCC(C)[C@@H](C(=O)N[C@@H](Cc1ccccc1)[C@H](O)CN(CC(C)C)S(=O)(=O)c1ccc(/C=N/O)cc1)N1CCN(Cc2ccncc2)C1=O	PR-L10F V32I M46I I47V Q68E I84V	MT-4	A17 (LPV-resistant)	1.3
CCOCn1c(Cc2ccccc2)c(C(C)C)c(=O)[nH]c1=O	RT-K103N Y181C	MT-4	IIIB	5000
Cc1ccccc1S(=O)(=O)c1c(C(=O)NCCO)[nH]c2ccc(Cl)cc12	RT-Y181C	MT-4	-	38.7
CCC(C)[C@@H](C(=O)N[C@@H](Cc1ccccc1)[C@H](O)CN(CC1CCCC1)S(=O)(=O)c1ccc(/C=N/O)cc1)N1CCN(Cc2cccc(C)n2)C1=O	PR-L10F V32I M46I I47V Q68E I84V	MT-4	A17 (LPV-resistant)	0.8
Cc1cc(C)cc(Sc2c(C(=O)NCCO)[nH]c3ccc(Cl)cc23)c1	RT-K103N Y181C	MT-4	-	100
C=CCOCn1c(C(=C)c2cc(C)cc(C)c2)c(CC)c(=O)[nH]c1=O	RT-Y181C	MT-4	IIIB	3330
CCc1c(C)[nH]c(=O)c(SCCC(N)=O)c1Oc1cc(C)cc(C)c1	RT-Y188L	MT-4	-	201
NC(=O)c1[nH]c2ccc(Cl)cc2c1S(=O)(=O)c1ccccc1	RT-K103N Y181C	MT-4	-	5000

A second listing of 4 rows from above:

| SMILES | mutations | cells | strain | value |
|---|---|---|---|---|
| Cc1ccc(S(=O)(=O)c2c(C(N)=O)[nH]c3ccc(Cl)cc23)cc1 | RT-K103R V179D P225H | C8166 | Efavirenz-resistant (RT K103R V179D P225H) | 9300 |
| NC(=O)c1[nH]c2ccc(Cl)cc2c1S(=O)(=O)c1ccccc1 | RT-K103N Y181C | MT-4 | - | 5000 |
| CCC(C)[C@@H](C(=O)N[C@@H](Cc1ccccc1)[C@H](O)CN(CC1CCCC1)S(=O)(=O)c1ccc(/C=N/O)cc1)N1CCN(Cc2cccnc2)C1=O | PR-L10F V32I M46I I47V Q68E I84V | MT-4 | A17 (LPV-resistant) | 0.5 |
| CCC(C)[C@@H](C(=O)N[C@@H](Cc1ccccc1)[C@H](O)CN(CC(C)C)S(=O)(=O)c1ccc(/C=N/O)cc1)N1CCN(Cc2ccccn2)C1=O | PR-L10F V32I M46I I47V Q68E I84V | MT-4 | A17 (LPV-resistant) | 2.4 |

An empty or dashed field is not shown. Fold resistance has wild type as its base.